PubChem BioAssay AID1259414, Drosophila RNAi Screening Center – 2018
The deposit covers about 24,000 reagents; below is an unselected part of those with a known target gene and a result. Over the whole deposit, about 1,210 (5%) got an active call. 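Inactive calls also include excluded dsRNAs with several or no targets, genes unexpressed in JW18, and well A1, regardless of score.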 Reagents against one gene are numbered here. Names joined by + are all predicted targets of the reagent.

Purpose: 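Fly genes that alter Wolbachia amount inside host cells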 (primary screen)
Cells: Drosophila JW18 cells infected with Wolbachia
Reagent: long dsRNA against Drosophila genes, 0.25 µg dsRNA per well of a 384-well plate
Timing: 5 days
Conditions: cells persistently infected with Wolbachia before knock-down; no added drug
Measured: 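Imaged fluorescence in situ signal for Wolbachia 23S rRNA per DAPI-counted host cell, given as a robust z-score within each plate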
Scale: Wolbachia per cell robust z: higher = more Wolbachia per host cell than the plate typical
Hit rule: 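Active if absolute robust z reaches 1.5 in two or more of three replicates, leaving out multi- or no-target dsRNAs, genes unexpressed in JW18 and A1 wells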

gene knocked down | reagent no. | Wolbachia per cell robust z, rep 1 | Wolbachia per cell robust z, rep 2 | Wolbachia per cell robust z, rep 3 | activity call
CR11235 (pseudo) | 1 | -0.116 | 0.196 | -0.193 | inactive
CR11235 (pseudo) | 2 | -1.26 | -1.12 | -1.19 | inactive
Ubc4 (Ubiquitin conjugating enzyme 4) | 1 | -2.11 | 0.357 | -0.376 | inactive
Lamp1 | 1 | 0.521 | -2.62 | 0.41 | inactive
Spn28Da (Serpin 28Da) | 1 | 1.01 | -0.449 | 0.482 | inactive
CG3558 | 1 | 0.285 | 1.35 | 0.903 | inactive
CG3558 | 2 | -1.54 | 0.279 | -0.25 | inactive
Ilp6 (Insulin-like peptide 6) | 1 | -1.83 | 0.255 | 0.385 | inactive
mei-217 + mei-218 | 1 | -1.17 | -1.55 | -3.95 | inactive
mei-217 + mei-218 | 2 | 0.821 | 0.366 | 0.054 | inactive
Dhps (Deoxyhypusine synthase) | 1 | 0.49 | 0.326 | 1.82 | inactive
sug (sugarbabe) | 1 | 0.401 | 0.307 | 0.671 | inactive
sug (sugarbabe) | 2 | -1.76 | 1.55 | 1.04 | inactive
CG11588 | 1 | 0.234 | -0.958 | -0.545 | inactive
CG11588 | 2 | 0.853 | -0.149 | 0.107 | inactive
CG8093 | 1 | -3.12 | -2.25 | -2.44 | inactive
tgy (twiggy) | 1 | 0.336 | -1.02 | -2.31 | inactive
Nnf1b | 1 | 0.618 | 0.593 | 0.134 | inactive
Nnf1b | 2 | -0.125 | 1.21 | 0.648 | inactive
Cpn (Calphotin) | 1 | 0.0641 | -4.28 | 1.41 | inactive
Cpn (Calphotin) | 2 | 0.162 | 0.559 | -0.544 | inactive
pit (pitchoune) | 1 | 0.0325 | 0.272 | 0.212 | inactive
pit (pitchoune) | 2 | -0.0344 | 0.0659 | 0.614 | inactive
pit (pitchoune) | 3 | 0.851 | 0.731 | 1.11 | inactive
Cpr49Af (Cuticular protein 49Af) | 1 | -0.621 | -0.0919 | -0.571 | inactive
Cpr49Af (Cuticular protein 49Af) | 2 | -1.8 | 0.41 | 1.35 | inactive
Muc12Ea (Mucin 12Ea) | 1 | -0.666 | -1.71 | -0.452 | inactive
Muc12Ea (Mucin 12Ea) | 2 | -0.825 | -2.03 | -1.35 | inactive
